Results on one substance are retold here after PMC7986981 (ACS Pharmacology & Translational Science, 2021).

The assay addresses SARS-CoV-2 3CL-Pro (Severe acute respiratory syndrome coronavirus 2, UniProt P0DTD1). Conditions: read-out: HP 3CL-Pro IC50.

One may read the IC50 as the midpoint of a concentration-inhibition curve.

With zinc pyrithione, the IC50 is 100 nM.
